Results published in ChEMBL document CHEMBL2434925, “Synthesis and antiviral activity of a novel class of (5-oxazolyl)phenyl amines” (Eur J Med Chem, 2013).

Assay: Selectivity index, ratio of CC50 for african green monkey Vero cells to IC50 for Coxsackie B3 virus Schmitt

In the case of `NC(=O)c1ncn([C@@H]2O[C@H](CO)[C@@H](O)[C@H]2O)n1` [RIBAVIRIN], the Ratio CC50/IC50 is reported as 9.
